Columns and labels:
C57BL/6J mice = details: mice immunized with CRM197-23* in Freund's adjuvant; glycan microarray, pooled sera
[1] = tested on: capsular polysaccharide of carbapenem-resistant K. pneumoniae strains; details: rabbits n=3, s.c., 10 μg sugar equivalent in alum at day 0 and 14; sera day 0, 14, 21

Question: How did the “hexasaccharide-specific IgG subclasses (IgG1, IgG2a, IgG3) contribution to IgG titer” value (C57BL/6J mice) turn out when `C[C@@H]1O[C@@H](O[C@H]2C(C(=O)O)O[C@H](OC3C(O)[C@@H](O)[C@H](C)O[C@H]3OC3C(O)[C@@H](O)[C@H](C)O[C@H]3OC3C(O)[C@@H](O)[C@H](C)O[C@H]3OCCCCCN)C(O)[C@H]2O[C@@H]2OC(CO)[C@H](O)[C@H](O)C2O)C(O)C(O)[C@H]1O` (stereo partly drawn) [hexasaccharide 23*, 5-Amino-pentanyl α-L-rhamnopyranosyl-(1→4)-[P3-D-galactopyranosyl-(1→3)]-α-D-galactopyranosyluronic acid-(1→2)-α-L-rhamnopyranosyl-(1→2)-α-L-rhamnopyranosyl-(1→2)-α-L-rhamnopyranoside] was run?
Answer: The value was “IgG1 and IgG2a were contributed bulk of the antigen-specific IgG titer”.

Question: And the “immunogenicity / antibody titer (end point titer, total IgG) by ELISA” value [1]?
Answer: Its value is “immunogenic in rabbits and generates cross reactive antibodies”.

From patent publication US10688169B2 (priority 2015, dated 2020)
